Broadly, the IC50 is the concentration at which inhibition is half-maximal. Usually EC50 stands for the concentration at which the effect is half-maximal. One may read the CC50 as the concentration giving 50% cytotoxicity.

For data set [1], the target named is SARS-CoV-2 main protease (Mpro) (Severe acute respiratory syndrome coronavirus 2, UniProt P0DTD1). The settings on record: read-out: Enzyme IC50.
Data set [2] concerns SARS-CoV-2 (strain USA-WA1/2020). The conditions noted are these: read-out: CoV-2 HeLa EC50.
Data set [3] has as its system HeLa-ACE2 cells. Kind of data set: Infected host cell toxicity (total cells) in viral replication assay. The settings on record: read-out: HeLa-ACE2 Total Cells EC50; Table 2; total cell count in infected plates.
The test system of data set [4] is HeLa-ACE2 cells. Briefly: Uninfected host cell cytotoxicity counter screen. The format is cell-based. The settings on record: read-out: Uninfected HeLa-ACE2 CC50, Table 2, 24 hours. The procedure:
Uninfected host cell cytotoxicity counter screen: HeLa-ACE2 cells were maintained as described for the infection assay and seeded in the assay-ready plates at 400 cells/well. Plates were incubated for 24 hours at 37° C. 5% CO2. To assess cell viability, the Image-iT DEAD green reagent was used according to manufacturer instructions. Cells were fixed with 4% paraformaldehyde, and counterstained with DAPI. Fixed cells are imaged as described above.
Viral replication data analysis: Data from the primary screen and the host cell cytotoxicity screen are normalized to neutral (DMSO) […] inhibitor controls (2.5 μM Remdesivir for antiviral effect and 10 μM puromycin for infected host cell toxicity). For the uninfected host cell cytotoxicity counter-screen 40 μM puromycin is used as the positive control. Concentration response experiments will be tested in triplicate.
A general note: Counterscreens check selectivity or assay interference.

A further data set deals with CoV-2 in Vero cells. Briefly: CoV-2 Vero antiviral assay. The conditions noted are these: Table 2. It counts as cell-based, SARS-CoV-2.
Setting [5] is: Table 2, SARS-CoV-2 infected HeLa-ACE2 cells.

Each structure is given as a SMILES string. Where two headings read alike, the source gives them in different places.

`Cc1cncc(C(=O)N2CC3CCC(C2)N3C(c2cccc(F)c2)c2ccccc2S(C)(=O)=O)c1` (centres unmarked): the IC50 in data set [1] (Table 2) was found to be 49 nM. The EC50 in data set [2] (setting [5]) was found to be 62 nM; in the data set on HeLa-ACE2 cells [3] it was 111 nM. In addition, in the data set on HeLa-ACE2 cells [4], the CC50 is over 39800 nM. Also, the “CoV-2 Vero EC50/100” value with CoV-2 in Vero cells was 2.5 µg/mL.

For the compound `Cc1cncc(C(=O)N2CCN(C3c4ccccc4CS(=O)(=O)c4ccccc43)CC2)c1` (centres unmarked), the 50% inhibitory concentration (IC50) is 48 nM in data set [1] (Table 2) and 48 nM in data set [1] (Table 3, select example compounds against mpro). Besides, the EC50 was 80 nM in data set [2] (setting [5]), 80 nM in data set [2] (Table 3) and 135 nM in the data set on HeLa-ACE2 cells [3]. Further, in the data set on HeLa-ACE2 cells [4], the 50% cytotoxic concentration (CC50) is over 39800 nM. For the same compound, the “CoV-2 Vero EC50/100” value in the data set on CoV-2 in Vero cells worked out at 5 µg/mL.

As to `Cc1cncc(C(=O)N2CC3CCC(C2)N3C2c3ccccc3CS(=O)(=O)c3ccccc32)c1` (centres unmarked), the IC50 in data set [1] (Table 2) came out at 250 nM. Also, the EC50 came out at 1940 nM in data set [2] (setting [5]) and 6910 nM with HeLa-ACE2 cells [3]. In addition, the cytotoxic concentration (CC50) in the data set on HeLa-ACE2 cells [4] was over 39800 nM.

For the compound `Cc1cncc(C(=O)N2CCN(C3c4ccccc4CSc4ccccc43)CC2)c1` (centres unmarked), the IC50 in data set [1] (Table 2) was 66 nM. For the same compound, the EC50 in data set [2] (setting [5]) was 210 nM; with HeLa-ACE2 cells [3], over 9610 nM. In addition, the CC50 in the data set on HeLa-ACE2 cells [4] came out at 24700 nM. Moreover, the “CoV-2 Vero EC50/100” value in the data set on CoV-2 in Vero cells amounted to 2.5 µg/mL.

For `Cc1cncc(C(=O)N2CCN(C(c3ccccc3)c3ccccc3S(C)(=O)=O)CC2)c1` (centres unmarked) [NZ-807, (5-methyl-3-pyridyl)-[4-[(2-methylsulfonylphenyl)-phenyl-methyl]piperazin-1-yl]methanone], in data set [1] (Table 2), the half-maximal inhibitory concentration (IC50) was 101 nM. For the same compound, the EC50 in data set [2] (setting [5]) was found to be 204 nM; with HeLa-ACE2 cells [3] it was 4910 nM. Moreover, the CC50 in the data set with HeLa-ACE2 cells [4] is over 39800 nM.

With `CC(=O)Nc1cncc(C(=O)N2CCN(C3c4ccccc4CS(=O)(=O)c4ccccc43)CC2)c1` (centres unmarked), the IC50 in data set [1] (Table 2) worked out at 300 nM. Further, the figures for the EC50 (in data set [2] (setting [5]); in the data set with HeLa-ACE2 cells [3]) were 1550 nM and 1120 nM, respectively. Besides, the CC50 with HeLa-ACE2 cells [4] was over 39800 nM.

The record behind these values is patent US20250084091A1, “INHIBITORS OF SARS-COV-2” (The Texas A&M University System, priority 2021, published 2025).
